Laboratory results as given in article PMC12406681 (Antimicrobial Agents and Chemotherapy, 2025).
Read-outs that look alike come from different tables or passages of the source.

Legend:
LACV [1] = conditions: cited from earlier work
LACV [2] = test: CPE-based antiviral activity assay (MTT) in Vero cells; format: cell-based, La Crosse virus; conditions: EC50 ratio, original stock virus
LACV [3] = test: CPE-based antiviral activity assay (MTT) in SH-SY5Y cells; format: cell-based, La Crosse virus; conditions: EC50 ratio, original stock virus
LACV passage control WT [4] = test: CPE-based antiviral activity assay in Vero cells, passage control WT; format: cell-based, La Crosse virus; conditions: EC50 ratio
LACV [5] = test: Time-of-addition assay in Vero cells (qRT-PCR); format: cell-based, La Crosse virus; conditions: 8 hpi, antibody 3 µg/mL, T-705 200 µM, CAPCA-1 10 µM
LACV passage control WT [6] = conditions: EC50 ratio, SH-SY5Y cells
LACV [7] = test: LACV footpad infection mouse model; conditions: 60 mg/kg/day s.c. q.d., 6 dpi
LACV [8] = test: Viral titer reduction assay in Vero cells (plaque assay); conditions: MOI 0.01, plaque assay at 32 hpi
LACV [9] = test: Immunofluorescence assay for LACV Gc protein in Vero cells; conditions: MOI 0.01, 32 hpi
LACV [10] = test: Viral titer reduction assay in SH-SY5Y cells (plaque assay); conditions: MOI 0.001, plaque assay at 48 hpi
LACV [11] = test: Lethal LACV infection mouse model, intraperitoneal infection

CC(=O)c1c(O)c(C)c(O)c(Cc2c(O)c3c(c(C(=O)/C=C/c4ccccc4)c2O)OC(C)(C)C=C3)c1O
Incidence of neurological disease in LACV-infected mice (LACV [1]): decreased the incidence of neurological disease

CC(C)C(=O)OC[C@H]1O[C@@H](n2ccc(NO)nc2=O)[C@H](O)[C@@H]1O
Incidence of neurological disease in LACV-infected mice (LACV [1]): decreased the incidence of neurological disease

CC(C)N1CN(C2c3ccccc3CCc3ccccc32)n2cc(C(=O)O)c(=O)c(O)c2C1=O [CAPCA-1, carbamoyl pyridone carboxylic acid (CAPCA)-1]
Fold change (/original stock) (LACV [2]): 1.00
Fold change (/passage control) (LACV [2]): 0.54
Fold change (/original stock) (LACV [3]): 1.00
Fold change (/passage control) (LACV [3]): 1.46
Fold change (/original stock) (LACV passage control WT [4]): 1.84
Fold change (/passage control) (LACV passage control WT [4]): 1.00
Viral RNA levels, post-entry treatment (LACV [5]): significantly reduced the viral RNA levels
Fold change (/original stock) (LACV passage control WT [6]): 0.68
Fold change (/passage control) (LACV passage control WT [6]): 1.00
Viral RNA in the blood (LACV [7]): tended to be lower
Viral RNA levels in the brain (LACV [7]): significant reduction of viral RNA levels
Viral RNA levels in the spleen (LACV [7]): significant reduction of viral RNA levels
Infectious virus titers in the culture supernatant (LACV [8]): dose-dependent reduction in infectious virus titers
Number of LACV Gc protein-positive cells (LACV [9]): reduced the number of LACV Gc protein-positive cells at lower concentrations compared to treatment with either T-705 or RBV
Viral growth (viral titers in the supernatants) (LACV [10]): reduced the LACV-induced CPE and viral growth in SH-SY5Y
Mice rescued from lethal infection (LACV [11]; 30 mg/kg/day s.c. q.d. until 7 dpi, LACV i.p.): 20%
Viral titers in the brain (LACV [11]; 60 mg/kg s.c., 6 and 7 dpi, plaque assay, versus vehicle): lower, although not significantly
Mice rescued from lethal infection (LACV [11]; 60 mg/kg/day s.c. q.d. until 7 dpi, LACV i.p.): 31%
Viral RNA levels in the spleen (LACV [11]; 60 mg/kg/day s.c., 6 and 7 dpi): significantly reduced viral RNA levels
Viral RNA in the brain (LACV [11]; 60 mg/kg/day s.c., 6 and 7 dpi, versus vehicle): significantly lower levels of viral RNA in the brain
Viral RNA levels in the blood (LACV [11]; 60 mg/kg/day s.c., 6 dpi): significantly reduced viral RNA levels
Viral RNA levels in the blood (LACV [11]; 60 mg/kg/day s.c., 7 dpi): non-significant reduction in viral RNA levels
Survival of LACV-infected mice (LACV [11]; 3, 10, 30, or 60 mg/kg/day s.c. q.d. from 4 h before infection until 7 dpi, LACV i.p.): significantly extended the survival

NC(=O)c1ncn([C@@H]2O[C@H](CO)[C@@H](O)[C@H]2O)n1 [RBV, Ribavirin, reference compound]
Efficacy in the in vivo infection model (LACV [1]): efficacy is limited in the in vivo infection model
Infectious virus titers in the culture supernatant (LACV [8]): significantly reduced viral titers
Viral growth (viral titers in the supernatants) (LACV [10]): significantly reduced viral titers

NC(=O)c1nc(F)c[nH]c1=O [T-705, favipiravir, reference compound]
Fold change (/original stock) (LACV [2]): 1.00
Fold change (/passage control) (LACV [2]): 0.86
Fold change (/original stock) (LACV passage control WT [4]): 1.16
Fold change (/passage control) (LACV passage control WT [4]): 1.00
Viral RNA levels, post-entry treatment (LACV [5]): significantly reduced the viral RNA levels
Efficacy against LACV in animal models (LACV [1]): limited in animal models
